Test results from US20090081183.
For part of these data: Where a protein sequence is shown, tags need not be part of it. For part of these data: Construct, isoform or probe ends are uncertain for at least one entry.

How the values were obtained:
Assay in all cases: EMSA
[1] = biological target: T1, LSF (his-LSF) (Homo sapiens) (UniProt Q12800); conditions: purified recombinant protein; protein details: His tag, expressed in E. coli; label: end labeled
T1 sequence (limits assumed): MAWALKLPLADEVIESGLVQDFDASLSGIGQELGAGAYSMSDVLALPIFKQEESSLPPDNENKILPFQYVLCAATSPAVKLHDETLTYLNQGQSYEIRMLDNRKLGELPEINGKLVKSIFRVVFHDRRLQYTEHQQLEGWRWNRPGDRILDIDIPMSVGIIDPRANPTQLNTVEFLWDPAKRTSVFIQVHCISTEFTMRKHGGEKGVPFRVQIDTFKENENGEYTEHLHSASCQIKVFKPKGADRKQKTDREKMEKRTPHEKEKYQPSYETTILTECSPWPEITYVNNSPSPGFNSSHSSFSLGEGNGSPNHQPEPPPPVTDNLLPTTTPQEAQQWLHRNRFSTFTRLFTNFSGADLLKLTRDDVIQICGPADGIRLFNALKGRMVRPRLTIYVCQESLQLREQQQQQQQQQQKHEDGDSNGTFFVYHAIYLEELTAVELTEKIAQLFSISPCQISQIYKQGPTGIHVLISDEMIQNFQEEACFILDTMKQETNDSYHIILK

[2] = test system: LSF + YY1 complex (Homo sapiens); conditions: purified recombinant protein; protein details: His tags, expressed in E. coli; label: end labeled
[3] = test system: YY1/LSF repressor complex (copurifying with HDAC1) from CEM nuclear extract (Homo sapiens); conditions: RCS-binding activity, YY1, LSF and HDAC1 copurify in 0.3 and 0.4 M NaCl fractions of RCS DNA-affinity column; purified native protein; label: end labeled

Measured: binding result

CAAGGGACTTTCCGCTGGGGACTTTCCAGGGAGGCGTGGCCTGGGCGGGACTGGGGAGTGGCGAGCCCTCAGATGCTGCATATAAGCAGCTGCTTTTTGCCTGTACTGGGTCTCTCTGGTTAGACCAGATTTGAGCCTGGGAGCTCTCTGGCTAACTAGGGAACCCACTGCTTAAGCCTCAATAAAGCTTGCCTTGAGTG (double strand) [HIV-1 LTR RCS oligonucleotide (-10 to +27)]
binds: [1] | [2] | [3]
